Patent US20130102493A1, “GENE EXPRESSION ANALYSES FOR CHARACTERIZING AND IDENTIFYING GENOTOXIC COMPOUNDS” (MERCK PATENT GESELLSCHAFT MIT BESCHRANKTER HAFTUNG, priority 2010, published 2013)

How the values were obtained:
HepG2 cells [1] = tested on: HepG2 cells
HepG2 cells [2] = tested on: HepG2 cells; remark: listed apart in the source

Substance: aflatoxin B1 [AFB1]
- regulation of the 91 genes (HepG2 cells [1]): did not change
- Categorization (HepG2 cells [2]): non-genotoxic
